Assay results reported in the supplement of paper PMC3578754.
Fold change is the IC50 on the isolate divided by the IC50 on a reference virus; 1 = unchanged, higher = more resistant. Changes are given against the subtype B consensus. No active / inactive call. The values were gathered from many studies (numbered anew) with different assays, which the source does not name. Most viruses are clinical isolates; some are laboratory strains or clones with known resistance changes. Isolates with mixed residues are left out; stretches that were not sequenced show no change. Round top values that many isolates share are read here as limits; other very high values and 0.1 may be limits too.

Legend:
Experiment in all cases: fold change of IC50 against reference virus; higher = more resistant
efavirenz = compound: O=C1Nc2ccc(Cl)cc2[C@@](C#CC2CC2)(C(F)(F)F)O1 [efavirenz]
Experimental: (§1)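 Cell-culture drug susceptibility tests of virus bearing the reverse transcriptase of each isolate, gathered from many studies.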

delavirdine = compound: CC(C)Nc1cccnc1N1CCN(C(=O)c2cc3cc(NS(C)(=O)=O)ccc3[nH]2)CC1 [delavirdine]
Experimental: as §1

nevirapine = compound: Cc1ccnc2c1NC(=O)c1cccnc1N2C1CC1 [nevirapine]
Experimental: as §1

stavudine = compound: Cc1cn([C@H]2C=C[C@@H](CO)O2)c(=O)[nH]c1=O [stavudine]
Experimental: as §1

didanosine = compound: O=c1[nH]cnc2c1ncn2[C@H]1CC[C@@H](CO)O1 [didanosine]
Experimental: as §1

zidovudine = compound: Cc1cn([C@H]2C[C@H](N=[N+]=[N-])[C@@H](CO)O2)c(=O)[nH]c1=O [zidovudine]
Experimental: as §1

“HIV-1 isolate 294 (reverse transcriptase changes: K102Q V106A S162C K277R I293V R358K V435I S468P K550G, study 27)” was tested, and the “fold change of IC50 against reference virus” value (shortened to “fold change of IC50”) (efavirenz) was 4.
“HIV-1 isolate 1523 (reverse transcriptase changes: L100I K102Q S162C K277R I293V R358K V435I S468P K550G, study 27)” was tested, and the “fold change of IC50” value (efavirenz) was 33.
In the case of “HIV-1 isolate 786 (reverse transcriptase changes: K102Q S162C Y181C K277R I293V R358K V435I S468P K550G, study 27)”, the “fold change of IC50” value (efavirenz) is reported as 2.
“HIV-1 isolate 486 (reverse transcriptase changes: K102Q V108I S162C K277R I293V R358K V435I S468P K550G, study 27)” was tested, and the “fold change of IC50” value (efavirenz) was 1.
For “HIV-1 isolate 1313 (reverse transcriptase changes: K122E Y181C F214L P236L A272P K277R A376T A400T K451R V458L D460N R461K S468P D471N H483Y K512Q S519N E529Q V559I, study 47)”, the “fold change of IC50” value (delavirdine) was 240 and the “fold change of IC50” value (nevirapine) was 2.
In the case of “HIV-1 isolate 1129 (reverse transcriptase changes: K101E G190S, study 110)”, the “fold change of IC50” value (stavudine) is reported as 0.8, the “fold change of IC50” value (delavirdine) is reported as 3 and the “fold change of IC50” value (nevirapine) is reported as 580. For the same test system, the “fold change of IC50” value (didanosine) was 1.2 and the “fold change of IC50” value (zidovudine) was 1.
With “HIV-1 isolate 1122 (reverse transcriptase changes: K122E E138K Y188H F214L A272P K277R A376T A400T D460N S468T H483Y K512Q S519N, study 85)” the “fold change of IC50” value (efavirenz) was 1.9.
With “HIV-1 isolate 175 (reverse transcriptase changes: K122E F214L A272P K277R A376T A400T K451R V458L D460N R461K S468P D471N H483Y K512Q S519N E529Q V559I, study 47)” the “fold change of IC50” value (delavirdine) was 1 and the “fold change of IC50” value (nevirapine) was 1.
“HIV-1 isolate 1486 (reverse transcriptase changes: K102Q S162C K277R, study 1)” was tested, and the “fold change of IC50” value (delavirdine) was 1, the “fold change of IC50” value (nevirapine) was 1 and the “fold change of IC50” value (zidovudine) was 1.
With “HIV-1 isolate 462 (reverse transcriptase changes: K102Q V106A S162C F227L K277R, study 1)” the “fold change of IC50” value (delavirdine) was 6, the “fold change of IC50” value (nevirapine) was 70 and the “fold change of IC50” value (zidovudine) was 0.5.
For “HIV-1 isolate 565 (reverse transcriptase changes: K122E Q161L H208Y F214L A272P K277R M357T A376T A400T N447S D460N S468T S519N, study 35)”, the “fold change of IC50” value (stavudine) was 0.6 and the “fold change of IC50” value (didanosine) was 1.
With “HIV-1 isolate 1602 (reverse transcriptase changes: D67N K70R V75A K122E F214L T215F K219E A272P K277R, study 20)” the “fold change of IC50” value (stavudine) was 3.3 and the “fold change of IC50” value (didanosine) was 2.
In the case of “HIV-1 isolate 158 (reverse transcriptase changes: K102Q K103N S162C K277R, study 1)”, the “fold change of IC50” value (delavirdine) is reported as 76 and the “fold change of IC50” value (nevirapine) is reported as 43.
In the case of “HIV-1 isolate 862 (reverse transcriptase changes: K102Q S162C F227C K277R, study 1)”, the “fold change of IC50” value (delavirdine) is reported as 1, the “fold change of IC50” value (nevirapine) is reported as 12 and the “fold change of IC50” value (zidovudine) is reported as 0.1.
“HIV-1 isolate 688 (reverse transcriptase changes: K102Q S162C Y188C K277R, study 1)” was tested, and the “fold change of IC50” value (delavirdine) was 5.3 and the “fold change of IC50” value (nevirapine) was 70.
In the case of “HIV-1 isolate 1330 (reverse transcriptase changes: K101I V106A K122E F214L F227L A272P K277R A376T A400T K451R V458L D460N R461K S468P D471N H483Y K512Q S519N E529Q V559I, study 96)”, the “fold change of IC50” value (delavirdine) is reported as ≥ 250, the “fold change of IC50” value (nevirapine) is reported as 700 and the “fold change of IC50” value (didanosine) is reported as 0.5. The “fold change of IC50” value (zidovudine) was 1.
In the case of “HIV-1 isolate 253 (reverse transcriptase changes: V106A K122E F214L A272P K277R A376T A400T K451R V458L D460N R461K S468P D471N H483Y K512Q S519N E529Q V559I, study 96)”, the “fold change of IC50” value (delavirdine) is reported as 10, the “fold change of IC50” value (nevirapine) is reported as 40 and the “fold change of IC50” value (didanosine) is reported as 0.4. The “fold change of IC50” value (zidovudine) was 1.3.
“HIV-1 isolate 70 (reverse transcriptase changes: K102Q V106A S162C K277R, study 1)” was tested, and the “fold change of IC50” value (delavirdine) was 25 and the “fold change of IC50” value (nevirapine) was 70.
For “HIV-1 isolate 206 (reverse transcriptase changes: K103N K122E F214L A272P K277R A376T A400T K451R V458L D460N R461K S468P D471N H483Y K512Q S519N E529Q V559I, study 47)”, the “fold change of IC50” value (delavirdine) was 30 and the “fold change of IC50” value (nevirapine) was 25.
In the case of “HIV-1 isolate 32 (reverse transcriptase changes: K64R K103N I135T Y181C G196E E204D, study 84)”, the “fold change of IC50” value (delavirdine) is reported as 62.
With “HIV-1 isolate 674 (reverse transcriptase changes: K102Q S162C Y181C K277R, study 1)” the “fold change of IC50” value (delavirdine) was 83, the “fold change of IC50” value (nevirapine) was 70 and the “fold change of IC50” value (zidovudine) was 1.
With “HIV-1 isolate 1180 (reverse transcriptase changes: V60I K70R K103N I135T D177E F214L, study 84)” the “fold change of IC50” value (delavirdine) was 9.
For “HIV-1 isolate 660 (reverse transcriptase changes: K102Q S162C L234I K277R, study 1)”, the “fold change of IC50” value (delavirdine) was 2, the “fold change of IC50” value (nevirapine) was 0.5 and the “fold change of IC50” value (zidovudine) was 1.
In the case of “HIV-1 isolate 1528 (reverse transcriptase changes: V106A K122E F214L F227L A272P K277R A376T A400T K451R V458L D460N R461K S468P D471N H483Y K512Q S519N E529Q V559I, study 96)”, the “fold change of IC50” value (delavirdine) is reported as 25, the “fold change of IC50” value (nevirapine) is reported as 700 and the “fold change of IC50” value (didanosine) is reported as 1. The “fold change of IC50” value (zidovudine) was 1.6.
With “HIV-1 isolate 207 (reverse transcriptase changes: K102Q S162C F227L K277R, study 1)” the “fold change of IC50” value (delavirdine) was 0.2 and the “fold change of IC50” value (nevirapine) was 4.
For “HIV-1 isolate 1315 (reverse transcriptase changes: K122E F214L P236L A272P K277R A376T A400T K451R V458L D460N R461K S468P D471N H483Y K512Q S519N E529Q V559I, study 47)”, the “fold change of IC50” value (delavirdine) was 72 and the “fold change of IC50” value (nevirapine) was 0.1.
In the case of “HIV-1 isolate 31 (reverse transcriptase changes: K102Q V106A S162C Y181C K277R, study 1)”, the “fold change of IC50” value (delavirdine) is reported as 83 and the “fold change of IC50” value (nevirapine) is reported as 70.
In the case of “HIV-1 isolate 1562 (reverse transcriptase changes: K102Q S162C P236L K277R, study 1)”, the “fold change of IC50” value (delavirdine) is reported as 83 and the “fold change of IC50” value (nevirapine) is reported as 3.
“HIV-1 isolate 161 (reverse transcriptase changes: K102Q S162C G190A K277R, study 1)” was tested, and the “fold change of IC50” value (delavirdine) was 0.2 and the “fold change of IC50” value (nevirapine) was 70.
For “HIV-1 isolate 880 (reverse transcriptase changes: D123E D177E V245E T286A I293V E300Q P321S M357T S379G T386I K390R A400T K431R V435L, study 29)”, the “fold change of IC50” value (stavudine) was 1.4.
With “HIV-1 isolate 1350 (reverse transcriptase changes: L100I K102Q S162C K277R, study 1)” the “fold change of IC50” value (delavirdine) was 100 and the “fold change of IC50” value (nevirapine) was 2.
“HIV-1 isolate 1196 (reverse transcriptase changes: R83K I135V Q174H V245K, study 84)” was tested, and the “fold change of IC50” value (delavirdine) was 1.
For “HIV-1 isolate 231 (reverse transcriptase changes: K122E Y181C F214L A272P K277R A376T A400T K451R V458L D460N R461K S468P D471N H483Y K512Q S519N E529Q V559I, study 47)”, the “fold change of IC50” value (delavirdine) was 30 and the “fold change of IC50” value (nevirapine) was 25.
“HIV-1 isolate 28 (reverse transcriptase changes: K102Q S162C T215Y K277R, study 9)” was tested, and the “fold change of IC50” value (stavudine) was 2.9, the “fold change of IC50” value (nevirapine) was 2 and the “fold change of IC50” value (didanosine) was 2.9. For the same test system, the “fold change of IC50” value (zidovudine) was 15.1.
In the case of “HIV-1 isolate 444 (reverse transcriptase changes: K64R I135T G196E E204D, study 84)”, the “fold change of IC50” value (delavirdine) is reported as 1.
“HIV-1 isolate 524 (reverse transcriptase changes: R83K K103N S162C R211G, study 84)” was tested, and the “fold change of IC50” value (delavirdine) was 110.
For “HIV-1 isolate 1021 (reverse transcriptase changes: K103N I178L G196E, study 84)”, the “fold change of IC50” value (delavirdine) was 31.
“HIV-1 isolate 127 (reverse transcriptase changes: K122E F214L A272P K277R M357T A376T A400T N447S D460N S468T S519N, study 35)” was tested, and the “fold change of IC50” value (stavudine) was 1, the “fold change of IC50” value (nevirapine) was 1 and the “fold change of IC50” value (didanosine) was 1. The “fold change of IC50” value (zidovudine) was 1.
With “HIV-1 isolate 1127 (reverse transcriptase changes: K101I V106A K122E Y181C F214L F227L A272P K277R A376T A400T K451R V458L D460N R461K S468P D471N H483Y K512Q S519N E529Q V559I, study 96)” the “fold change of IC50” value (delavirdine) was 1, the “fold change of IC50” value (nevirapine) was 700 and the “fold change of IC50” value (didanosine) was 0.3. For the same test system, the “fold change of IC50” value (zidovudine) was 1.
